Construct, isoform or probe ends are uncertain for at least one entry.
Experiments:
[1] = biological target: T1, Vfr (Pseudomonas aeruginosa) (UniProt P55222); assay: EMSA; conditions: cAMP-saturated, 2.25-68 nM, no apparent change vs WT; EMSA: 10 mM Tris pH 7.5, 50 mM KCl, 1 mM EDTA, 1 mM DTT, 5% glycerol, 100 ug/mL BSA, 5 ug/mL poly(dI-dC), 0.25 nM probe, 25 C; recombinant protein; label: 32P end label; probe letters rebuilt from the primers and the genome
T1 sequence: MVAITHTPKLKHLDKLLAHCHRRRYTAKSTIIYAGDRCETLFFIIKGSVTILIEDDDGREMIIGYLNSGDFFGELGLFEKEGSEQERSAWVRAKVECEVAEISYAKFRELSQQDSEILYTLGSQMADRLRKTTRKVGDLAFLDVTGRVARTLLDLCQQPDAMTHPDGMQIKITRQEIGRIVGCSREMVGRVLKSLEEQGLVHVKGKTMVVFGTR

[2] = biological target: T1, Vfr (Pseudomonas aeruginosa); assay: DNase I footprinting; conditions: cAMP-Vfr 1-114 nM, hypersensitive at -127 and -117; 5' amino modifier C6 on one primer; footprinting: 10 mM Tris pH 8.0, 50 mM KCl, 2 mM MgCl2, 0.5 mM DTT, 10% glycerol, 100 ug/mL BSA, 5 ug/mL poly(dI-dC), 25 C; recombinant protein; label: 32P, top strand single end label; probe letters rebuilt from the primers and the genome

| Sequence | binding result [1] | binding result [2] |
| --- | --- | --- |
| GCATACCGTTGCCTGGCAACTGATCCTCAACCGGCAGGGCCGGCTCCGTACCGCGAGCGCCAGGGAGAACCGGGAGAAACGTGAGATATGCATCACTTCCGGATGATCATGGACCAGTTGTCCTGCCCCTCGGGCCGACCGTCAACGACCGCAAGACGCTCCCAGGCCCGTTTGGCATGCTTTCCAGGCGTAGAC (double strand) [PfimU M1] | binds | – |
| GCATACCGTTGCCTGGCAACTGATCCTCAACCGGCAGGGCCGGCTCCGTACCGCGAGCGCCAGGGAGAACCGGGAGAAACGTGAGCTATGCAGCACTTCCGGATGATCATGGACCAGTTGTCCTGCCCCTCGGGCCGACCGTCAACGACCGCAAGACGCTCCCAGGCCCGTTTGGCATGCTTTCCAGGCGTAGAC (double strand) [PfimU footprinting probe] | – | binds |
